A mixed list of measured activities; the numbers were collected in NIAID ChemDB.

Shared fields: tests in culture; organism: Candida albicans; read-out: zone

An empty or dashed field is not shown. Zone: diameter of growth inhibition. Conditions beyond the fields shown may differ between rows.

| compound | strain or isolate | tested at | value |
|---|---|---|---|
| c1ccc(-c2nnc(CN3CCC(n4nc5ccccc5n4)CC3)o2)cc1 |  | 300 µg/mL | 3.12 mm |
| c1ccc2c(c1)Sc1cccnc1N2CCCCCCN1c2ccccc2Sc2cccnc21 | MTCC 227 | 100 µg/mL | 12 mm |
| COC(=O)[C@H](C)NC(=O)[C@H](Cc1ccc(O)cc1)NC(=O)[C@@H]1CCCN1C(=O)[C@H](CC(C)C)NC(=O)CNC(=O)[C@@H]1CCCN1C(=O)[C@H](CC(=O)O)NC(C)(C)C |  | 6 µg/mL | 12 mm |
| O=[N+]([O-])c1ccc2nc(/C=C/c3ccc(Cl)cc3)[nH]c2c1 |  | 25 µg/mL | 11.26 mm |
| Nc1nc2nc(-c3ccccn3)c(-c3ccccn3)nc2c(=O)[nH]1 |  | 500 mg/mL | 40 mm |
| CCOC(=O)Cn1c(C(F)(F)C(F)(F)F)nc2cc([N+](=O)[O-])ccc21 | MTCC 227 | 500 µg/mL | 800 mm |
| Clc1ccc(-c2nn(-c3ccccc3)cc2C2CC(c3ccc(Cl)cc3Cl)=NN2c2ccccc2)cc1 | MTCC 227 | 1000 µg/mL | 4 mm |
| Cc1ccc(-c2nnc(CN3CCC(n4nc5ccccc5n4)CC3)o2)cc1Br |  | 600 µg/mL | 5.51 mm |
| Brc1ccc2c(c1)Sc1cccnc1N2CCCCN1c2ccc(Br)cc2Sc2cccnc21 | MTCC 227 | 100 µg/mL | 11 mm |
| COc1ccc(/C=C/c2nc3ccc(Cl)cc3[nH]2)cc1OC |  | 25 µg/mL | 12.36 mm |
| Cn1c(=S)[nH]c2nc(-c3ccccn3)c(-c3ccccn3)nc2c1=O |  | 500 mg/mL | 0 mm |
| Cc1nc2ccccc2n(CC(=O)NN2C(=O)CSC2c2ccccc2Cl)c1=O |  | 50 µg/mL | 7 mm |
| CC(=O)Nc1ccccc1Sc1ncccc1[N+](=O)[O-] | MTCC 227 | 100 µg/mL | 12 mm |
| Cc1nc2ccccc2n(CC(=O)NN2C(=O)CSC2c2ccc(Cl)cc2)c1=O |  | 50 µg/mL | 12 mm |
| CC(C)(C)c1cc(-c2nnc(CN3CCC(n4nc5ccccc5n4)CC3)o2)cc(C(C)(C)C)c1 |  | 1200 µg/mL | 29.85 mm |
| O=c1[nH]c(=S)[nH]c2nc(-c3ccccn3)c(-c3ccccn3)nc12 |  | 500 mg/mL | 20 mm |
| CC1=NN(c2nnc3c(n2)Nc2ccccc2C3)C(=O)C1 | ATCC 2091 | 1000 µg/mL | 23 mm |
| Clc1ccc(C2=NN(c3ccccc3)C(c3cn(-c4ccccc4)nc3-c3ccccc3)C2)c(Cl)c1 | MTCC 227 | 500 µg/mL | 0 mm |
| CCOC(=O)Cn1c(C(F)(F)F)nc2cc(C(=O)c3ccccc3)ccc21 | MTCC 227 | 500 µg/mL | 500 mm |
| Cc1nc2ccccc2n(CC(=O)NN2C(=O)CSC2c2ccc(O)cc2)c1=O |  | 50 µg/mL | 13 mm |
| CCn1c(C(F)(F)F)nc2ccc([N+](=O)[O-])cc21 | MTCC 227 | 500 µg/mL | 900 mm |
| CC1(C)CC(=O)c2cc(C3CC(c4ccc(Br)cc4)=NO3)[nH]c2C1 | ATCC 2091 | 1000 µg/mL | 24 mm |
| O=[N+]([O-])c1ccc2nc(C(F)(F)C(F)(F)F)n(CCCCCl)c2c1 | MTCC 227 | 500 µg/mL | 800 mm |
| Cc1ccc(O)c(O)c1O |  | 100 µg/mL | 16 mm |
| O=C(Cc1nnc2n1-c1nc3ccccc3nc1NN2)NNC(=S)Nc1ccccc1 | ATCC 2091 | 1000 µg/mL | 34 mm |
| Brc1ccc(-c2nn(-c3ccccc3)cc2C2CC(c3ccc(-c4ccccc4)cc3)=NN2c2ccccc2)cc1 | MTCC 227 | 500 µg/mL | 4 mm |
| O=[N+]([O-])c1ccc(/C=C/c2nc3ccc([N+](=O)[O-])cc3[nH]2)cc1 |  | 25 µg/mL | 10.08 mm |
| Cc1nc2ccccc2n(CC(=O)NN2C(=O)CSC2c2ccccc2F)c1=O |  | 100 µg/mL | 15 mm |
| CSc1ccc(C2=NN(c3ccccc3)C(c3cn(-c4ccccc4)nc3-c3ccccc3)C2)cc1 | MTCC 227 | 500 µg/mL | 0 mm |
| Cc1nc2ccccc2n(CC(=O)NN2C(=O)CSC2c2ccc([N+](=O)[O-])cc2)c1=O |  | 50 µg/mL | 12 mm |
| O=c1[nH]c(=O)c2nc(-c3ccccn3)c(-c3ccccn3)nc2[nH]1 |  | 500 mg/mL | 25 mm |

For reference, 5 entries again:

compound | strain or isolate | tested at | value
CC(C)(C)c1cc(-c2nnc(CN3CCC(n4nc5ccccc5n4)CC3)o2)cc(C(C)(C)C)c1 |  | 1200 µg/mL | 29.85 mm
Cn1c(=S)[nH]c2nc(-c3ccccn3)c(-c3ccccn3)nc2c1=O |  | 500 mg/mL | 0 mm
O=C(Cc1nnc2n1-c1nc3ccccc3nc1NN2)NNC(=S)Nc1ccccc1 | ATCC 2091 | 1000 µg/mL | 34 mm
Clc1ccc(C2=NN(c3ccccc3)C(c3cn(-c4ccccc4)nc3-c3ccccc3)C2)c(Cl)c1 | MTCC 227 | 500 µg/mL | 0 mm
Clc1ccc(-c2nn(-c3ccccc3)cc2C2CC(c3ccc(Cl)cc3Cl)=NN2c2ccccc2)cc1 | MTCC 227 | 1000 µg/mL | 4 mm